Pooled drug test results. Numbers come from NIAID ChemDB, via PubChem.

All rows: growth or infection tests; agent: Aspergillus niger; endpoint: MIC

An empty or dashed field is not shown. Rows are shuffled and stem from different studies. a–b is a range or a potency band.

SMILES | strain | read by | value
Cn1c(=O)cc(Oc2nc(Nc3ccc(C#N)cc3)nc(Nc3nc4ccc(Br)cc4s3)n2)c2ccccc21 | MTCC 2825 | agar | 50 µg/mL
C[N+](C)(C)CCn1[se]c2ccccc2c1=O | - | agar | >512 µg/mL
Cn1c(=O)cc(Oc2nc(Nc3ccc(C#N)cc3)nc(Nc3nc4ccc(F)cc4s3)n2)c2ccccc21 | MTCC 2825 | agar | 25 µg/mL
Oc1cccc2cccnc12 | ATCC 1004 | - | 8 µg/mL
O=c1c2ccccc2[se]n1C(CO)CO | - | agar | >512 µg/mL
Cn1c(=O)cc(Oc2nc(Nc3ccc(C#N)cc3)nc(Nc3ccccn3)n2)c2ccccc21 | MTCC 2825 | agar | 500 µg/mL
c1ccc([Se][Se]c2ccccc2)cc1 | - | broth dilution | 8–32 µg/mL
COc1ccc2nc(NS(=O)(=O)C3C(=O)ONN3c3ccc(C)cc3)sc2c1 | MTCC 282 | broth dilution | 1000 µg/mL
CCCCCOc1ccc(-c2cc(-c3ccc(C(=O)N[C@H]4C[C@@H](O)[C@@H](O)NC(=O)[C@@H]5[C@@H](O)[C@@H](C)CN5C(=O)[C@H]([C@H](O)CC(N)=O)NC(=O)[C@H]([C@H](O)[C@@H](O)c5ccc(O)c(OS(=O)(=O)O)c5)NC(=O)[C@@H]5C[C@@H](O)CN5C(=O)[C@H]([C@@H](C)O)NC4=O)cc3)no2)cc1 | - | - | 0.015–0.06 µg/mL
O=Cc1c(O)ccc2ccc(=O)oc12 | - | broth dilution | 15000 µM
C[C@H]1[C@H](O)[C@@H](C)/C=C/C=C/C=C/C=C/C=C/C=C/C=C/[C@H](O[C@@H]2O[C@H](C)[C@@H](O)[C@H](N)[C@@H]2O)C[C@@H]2O[C@](O)(C[C@@H](O)C[C@@H](O)CC[C@H](O)[C@@H](O)C[C@@H](O)CC(=O)O[C@H]1C)C[C@H](O)[C@H]2C(=O)O | ITCC 5405 | broth dilution | 1.95 µg/mL
CN(C)CCn1[se]c2ccccc2c1=O | - | agar | >512 µg/mL
Cn1c(=O)cc(Oc2nc(Nc3ccc(C#N)cc3)nc(Sc3nc4ccccc4s3)n2)c2ccccc21 | MTCC 2825 | agar | 50 µg/mL
C[C@@H](c1ncncc1F)[C@](O)(Cn1cncn1)c1ccc(F)cc1F | - | - | 0.125–4 µg/mL
CCCCCC1CC(O)CC(=O)O1 | A420 | broth dilution | 187.5 µg/mL
O=c1c2ccccc2[se]n1CCO | - | agar | 242 µg/mL
Cc1ccc(N2NOC(=O)C2S(=O)(=O)Nc2nc3ccc(Cl)cc3s2)cc1 | MTCC 282 | broth dilution | 200 µg/mL
COc1ccc([Se][Se]c2ccc(OC)cc2)cc1 | - | broth dilution | >64 µg/mL
Cc1ccc(N2NOC(=O)C2S(=O)(=O)Nc2nc3ccc(C)cc3s2)cc1 | MTCC 282 | broth dilution | 1000 µg/mL
CCC(C)n1ncn(-c2ccc(N3CCN(c4ccc(OC[C@H]5CO[C@](Cn6cncn6)(c6ccc(Cl)cc6Cl)O5)cc4)CC3)cc2)c1=O | - | - | 0.25–4 µg/mL
Cc1ccc(N2NOC(=O)C2S(=O)(=O)Nc2nc3cc(C)ccc3s2)cc1 | MTCC 282 | broth dilution | 500 µg/mL
C[C@@H]1[C@H](O)[C@@H](C)/C=C/C=C/CC/C=C/C=C/C=C/C=C/C(O[C@H]2O[C@H](C)[C@@H](O)[C@H](N)[C@@H]2O)CC2O[C@](O)(CC(O)C(O)CCC(O)CC(O)CC(O)CC(=O)O[C@H]1C)CC(O)C2C(=O)O | - | agar diffusion | 10 µg/mL
Oc1c(Br)ccc2cccnc12 | ATCC 1004 | - | 2 µg/mL
CCn1[se]c2ccccc2c1=O | - | agar | 28 µg/mL
Cc1ccc(N2NOC(=O)C2S(=O)(=O)Nc2nc(-c3ccc([N+](=O)[O-])cc3)cs2)cc1 | MTCC 282 | broth dilution | 250 µg/mL
Oc1cccc2cc(Br)cnc12 | ATCC 1004 | - | 7 µg/mL
O=c1c2ccccc2[se]n1C1CCCCC1 | - | agar | 9 µg/mL
Oc1ccc(Br)c2cccnc12 | ATCC 1004 | - | 3 µg/mL
Cc1ccc(N2NOC(=O)C2S(=O)(=O)Nc2ccc(-n3c(-c4ccc([N+](=O)[O-])cc4)nc4ccccc4c3=O)cc2)cc1 | MTCC 282 | broth dilution | 500 µg/mL
Oc1cccc2ccc(Br)nc12 | ATCC 1004 | - | >100 µg/mL
CC[C@@H]([C@H](C)O)n1ncn(-c2ccc(N3CCN(c4ccc(OC[C@@H]5CO[C@@](Cn6cncn6)(c6ccc(F)cc6F)C5)cc4)CC3)cc2)c1=O | - | - | 0.125–2 µg/mL
C[C@@H]1[C@H](O)[C@@H](C)/C=C/C=C/CC/C=C/C=C/C=C/C=C/C(O[C@H]2O[C@H](C)[C@@H](O)[C@H](N)[C@@H]2O)CC2O[C@](O)(CC(O)C(O)CCC(O)CC(O)CC(O)CC(=O)O[C@H]1C)CC(O)C2C(=O)O | MTCC 282 | broth dilution | 100 µg/mL
C[C@@H]1[C@H](O)[C@@H](C)/C=C/C=C/C=C/C=C/C=C/C=C/C=C/[C@H](O[C@@H]2O[C@H](C)[C@@H](O)[C@H](N)[C@@H]2O)C[C@@H]2O[C@](O)(C[C@@H](O)[C@H](O)CC[C@@H](O)C[C@@H](O)C[C@@H](O)CC(=O)O[C@H]1C)C[C@H](O)[C@H]2C(=O)O | ATCC 16404 | broth dilution | 2 µg/mL
Cn1c(=O)cc(Oc2nc(Nc3ccc(C#N)cc3)nc(Nc3nc4ccc(Cl)cc4s3)n2)c2ccccc21 | MTCC 2825 | agar | 100 µg/mL
Nc1[nH]c(=O)ncc1F | - | - | 4–64 µg/mL
CC(C)n1[se]c2ccccc2c1=O | - | agar | 15 µg/mL

The first 4 rows once more:

SMILES,strain,read by,value
Cn1c(=O)cc(Oc2nc(Nc3ccc(C#N)cc3)nc(Nc3nc4ccc(Br)cc4s3)n2)c2ccccc21,MTCC 2825,agar,50 µg/mL
C[N+](C)(C)CCn1[se]c2ccccc2c1=O,-,agar,>512 µg/mL
Cn1c(=O)cc(Oc2nc(Nc3ccc(C#N)cc3)nc(Nc3nc4ccc(F)cc4s3)n2)c2ccccc21,MTCC 2825,agar,25 µg/mL
Oc1cccc2cccnc12,ATCC 1004,-,8 µg/mL